Measured values from several laboratories, pooled; numbers as filed in NIAID ChemDB.

All rows: whole-cell or culture tests; organism: Aspergillus niger; measure: zone

An empty or dashed field is not shown. Zones are inhibition diameters on agar. Rows are shuffled and stem from different studies.

structure | tested at | strain or isolate | method | result
CN1CCN(c2nc(Nc3ccc(C#N)c(C(F)(F)F)c3)nc(Oc3cccc4cccnc34)n2)CC1 | 100 µg/disc | MTCC 282 | agar diffusion / agar | 19 mm
COc1ccc(C2OC(c3sc4ccccc4c3Cl)=NN2C(C)=O)cc1 | 5 µg/disc |  |  | 9 mm
Cc1cccc(NCc2cc3ccccc3nc2Cl)c1 | 200 µg/mL | MTCC 281 | agar diffusion | 9.53 mm
CC[C@H](/C=C/[C@@H](C)[C@H]1CCC2C3CC=C4CC(O)CC[C@]4(C)C3CC[C@@]21C)C(C)C | 500 µg/mL | ATCC 16404 | agar diffusion | 0 mm
CCOC(=O)c1cc2ccccc2[nH]1 | 5000 µg/mL |  | agar diffusion | 1.3 mm
Clc1ccc(COC(Cn2ccnc2)c2ccc(Cl)cc2Cl)c(Cl)c1 | 30 µg/mL |  | agar diffusion | 24 mm
Cc1ccc2c(c1)C(C1SCC(=O)N1NC(=O)N1c3ccccc3C=Cc3ccccc31)C(c1ccccc1)=N2 | 500 µg/mL | MTCC 281 | agar diffusion | 2 mm
COc1cc2c(cc1-c1cc(-c3ccccc3)nc(N)n1)CCC(C)(C)O2 | 100 µg/mL |  | agar diffusion | 13 mm
Clc1ccc(COC(Cn2ccnc2)c2ccc(Cl)cc2Cl)c(Cl)c1 | 150 µg/mL |  | agar diffusion / agar | 4 mm
N#Cc1ccc(Nc2nc(Oc3ccnc4ccccc34)nc(N3CCN(c4ccccn4)CC3)n2)cc1C(F)(F)F | 100 µg/mL | MTCC 282 | agar | <10 mm
CCc1c(Cc2ccc(Cl)cc2)nc(SCCN2CCCC2)[nH]c1=O | 200 µg/disc | NRRL 599 | agar diffusion / agar | 13 mm
O=[N+]([O-])c1cccc(-c2nnc(-c3sc4ccccc4c3Cl)o2)c1 | 5 µg/disc |  |  | 11 mm
CC(=NNC(=O)c1snnc1C(F)(F)F)c1ccc([N+](=O)[O-])cc1 | 150 µg/mL | MTCC 1344 | agar diffusion / agar | 0 mm
Fc1ccc(NCc2cc3ccccc3nc2Cl)cc1 | 200 µg/mL | MTCC 281 | agar diffusion | 14.76 mm
C#CCn1c(C(F)(F)F)nc2ccc([N+](=O)[O-])cc21 | 500 µg/mL | MTCC 1344 |  | 650 mm
CN1CCN(c2nc(Nc3ccc(C#N)c(C(F)(F)F)c3)nc(Oc3ccnc4ccccc34)n2)CC1 | 100 µg/mL | MTCC 282 | agar | <10 mm
CCc1c(Cc2ccc(Cl)cc2)nc(SCCN2CCOCC2)[nH]c1=O | 200 µg/disc | NRRL 599 | agar diffusion / agar | <10 mm
N#Cc1ccc(Nc2nc(Oc3cccc4cccnc34)nc(N3CCN(c4cccc(Cl)c4Cl)CC3)n2)cc1C(F)(F)F | 100 µg/disc | MTCC 282 | agar diffusion / agar | 23 mm
Cc1nn(-c2ccccc2)c(O)c1C(=Nc1cccc(N=C(c2ccccc2)c2c(C)nn(-c3ccccc3)c2O)c1)c1ccccc1 | 400 µg/mL |  | agar diffusion / agar | 2 mm
COc1cc(C2OC(c3sc4ccc(Cl)cc4c3Cl)=NN2C(C)=O)cc(OC)c1OC | 40 µg/mL | ATCC 9029 | agar diffusion / agar | 20 mm
CCOC(=O)/C(C)=N/Nc1ccccc1 | 5000 µg/mL |  | agar diffusion | 1.85 mm
CCOC(=O)Cn1c(C(F)(F)F)nc2cc(C(=O)c3ccccc3)ccc21 | 500 µg/mL | MTCC 1344 |  | 800 mm
N#Cc1ccc(Nc2nc(Oc3cccc4cccnc34)nc(N3CCN(c4cccc(Cl)c4)CC3)n2)cc1C(F)(F)F | 100 µg/disc | MTCC 282 | agar diffusion / agar | 23 mm
O=[N+]([O-])c1ccc2c(c1)nc(C(F)(F)C(F)(F)F)n2CCCCCl | 500 µg/mL | MTCC 1344 |  | 650 mm
Cc1ccc(N=Nc2c(C)[nH]n(C(=O)c3sc4ccc(Cl)cc4c3Cl)c2=O)c(C)c1 | 40 µg/mL | ATCC 9029 | agar diffusion / agar | 14 mm
COc1cccc(C2OC(c3sc4ccccc4c3Cl)=NN2C(C)=O)c1 | 5 µg/disc |  |  | 11 mm
CCOC(=O)Cn1c(C(F)(F)F)nc2ccc([N+](=O)[O-])cc21 | 500 µg/mL | MTCC 1344 |  | 500 mm
N#Cc1ccc(Nc2nc(Oc3cccc4cccnc34)nc(N3CCN(c4ccccc4)CC3)n2)cc1C(F)(F)F | 100 µg/disc | MTCC 282 | agar diffusion / agar | 20 mm
CC(=O)c1cc(C2OC(c3sc4ccccc4c3Cl)=NN2C(C)=O)ccc1O | 5 µg/disc |  |  | 10 mm
COc1cc2c(cc1-c1cc(-c3ccc(C)cc3)nc(N)n1)CCC(C)(C)O2 | 100 µg/mL |  | agar diffusion | 16 mm
Fc1ccc(NCc2cc3ccccc3nc2Cl)cc1Cl | 200 µg/mL | MTCC 281 | agar diffusion | 17.76 mm
Cc1ccc(NC(=O)c2ccc(CN3CCN(C)CC3)cc2)cc1Nc1nccc(-c2cccnc2)n1 | 100 µM |  | agar diffusion | 19 mm
COc1cc2c(cc1-c1cc(-c3ccc(C#N)cc3)nc(N)n1)CCC(C)(C)O2 | 100 µg/mL |  | agar diffusion | 17 mm
CCc1c(Cc2ccc(OC)c(OC)c2)nc(SCCN2CCOCC2)[nH]c1=O | 200 µg/disc | NRRL 599 | agar diffusion / agar | 24 mm
CC(=O)N1N=C(c2sc3ccccc3c2Cl)OC1c1cccc([N+](=O)[O-])c1 | 5 µg/disc |  |  | 10 mm
Cc1[nH]n(C(=O)c2sc3ccc(Cl)cc3c2Cl)c(=O)c1N=Nc1ccc(F)cc1 | 40 µg/mL | ATCC 9029 | agar diffusion / agar | 16 mm
COc1cc2c(cc1-c1cc(-c3ccc([N+](=O)[O-])cc3)nc(N)n1)CCC(C)(C)O2 | 100 µg/mL |  | agar diffusion | 22 mm
CC(=O)OC[C@H]1O[C@@H](Sc2n[nH]c(-c3cc4ccccc4[nH]3)n2)[C@H](OC(C)=O)[C@@H](OC(C)=O)[C@H]1OC(C)=O | 5000 µg/mL |  | agar diffusion | 0 mm
O=C(NN1C(=O)CSC1C1C(c2ccccc2)=Nc2ccccc21)N1c2ccccc2C=Cc2ccccc21 | 1000 µg/mL | MTCC 281 | agar diffusion | 3 mm
CC(=O)N1N=C(c2sc3ccccc3c2Cl)OC1c1ccccc1 | 5 µg/disc |  |  | 10 mm
CC[C@H](/C=C/[C@@H](C)[C@H]1CCC2C3CC=C4CC(O[C@@H]5O[C@H](CO)[C@@H](O)[C@H](O)[C@H]5O)CC[C@]4(C)C3CC[C@@]21C)C(C)C | 500 µg/mL | ATCC 16404 | agar diffusion | 0 mm
O=C(NN=CC1C(c2ccccc2)=Nc2ccc(Cl)cc21)N1c2ccccc2C=Cc2ccccc21 | 750 µg/mL | MTCC 281 | agar diffusion | 12 mm
COc1ccc2nc(Cl)c(C3OC(c4sc5ccc(Cl)cc5c4Cl)=NN3C(C)=O)cc2c1 | 40 µg/mL | ATCC 9029 | agar diffusion / agar | 16 mm
C=CC(C)(O)CCC=C(C)C.CC(C)=CCC/C(C)=C/CC/C(C)=C/CC/C=C(/C)CC/C(C)=C\CO | 500 µg/mL | ATCC 16404 | agar diffusion | 15 mm
Cc1c(Cc2ccc(Cl)cc2)nc(SCCCN2C(=O)c3ccccc3C2=O)[nH]c1=O | 200 µg/disc | NRRL 599 | agar diffusion / agar | 18 mm
OC(Cn1cncn1)(Cn1cncn1)c1ccc(F)cc1F | 200 µg/mL |  | agar diffusion | 60 mm
CCN1CCN(c2nc(Nc3ccc(C#N)c(C(F)(F)F)c3)nc(Oc3cccc4cccnc34)n2)CC1 | 100 µg/disc | MTCC 282 | agar diffusion / agar | 21 mm
N#Cc1ccc(Nc2nc(Oc3ccnc4ccccc34)nc(N3CCN(c4ccccc4)CC3)n2)cc1C(F)(F)F | 100 µg/mL | MTCC 282 | agar | <10 mm
Fc1ccc(-c2nnc(-c3sc4ccccc4c3Cl)o2)cc1 | 5 µg/disc |  |  | 12 mm
Cc1[nH]n(-c2ccccc2)c(=O)c1C(=Nc1ccc(N)cc1)c1ccccc1 | 400 µg/mL |  | agar diffusion / agar | 5 mm
Clc1ccccc1-c1nnc(-c2sc3ccccc3c2Cl)o1 | 5 µg/disc |  |  | 11 mm
NCCCNc1ccnc2cc(Cl)ccc12 | 200 µg/mL |  | agar diffusion | 44 mm
C[C@@H]1[C@H](O)[C@@H](C)/C=C/C=C/C=C/C=C/C=C/C=C/C=C/[C@H](O[C@@H]2O[C@H](C)[C@@H](O)[C@H](N)[C@@H]2O)C[C@@H]2O[C@](O)(C[C@@H](O)C[C@@H](O)[C@H](O)CC[C@@H](O)C[C@@H](O)CC(=O)O[C@H]1C)C[C@H](O)[C@H]2C(=O)O | 100 µg/mL | MTCC 1344 | agar diffusion / agar | 25 mm
CCOC(=O)Cn1c(C(F)(F)C(F)(F)F)nc2ccc([N+](=O)[O-])cc21 | 500 µg/mL | MTCC 1344 |  | 800 mm
Clc1ccc(COC(Cn2ccnc2)c2ccc(Cl)cc2Cl)c(Cl)c1 | 100 µg/mL |  | agar diffusion | 18 mm
CC(C)[C@@H](C)/C=C/[C@@H](C)[C@H]1CCC2C3=CC=C4CC(O)CC[C@]4(C)C3CC[C@@]21C | 500 µg/mL | ATCC 16404 | agar diffusion | 0 mm
COC1=CC(=O)C[C@@H](C)[C@]12Oc1c(Cl)c(OC)cc(OC)c1C2=O | 100 µg/mL |  | agar diffusion / agar | 9 mm
O=C(NN=Cc1ccc(O)cc1)c1snnc1C(F)(F)F | 150 µg/mL | MTCC 1344 | agar diffusion / agar | 0 mm
Clc1nc2ccccc2cc1CNCc1ccccc1 | 200 µg/mL | MTCC 281 | agar diffusion | 15.69 mm
CCc1c(Cc2ccc(Cl)cc2)nc(SCCN2CCCCC2)[nH]c1=O | 200 µg/disc | NRRL 599 | agar diffusion / agar | 21 mm
Cc1n[nH]c(=S)n1N=C/C=C/c1c(-c2ccc(F)cc2)c2ccccc2n1C(C)C | 500 µg/mL |  |  | 14 mm
Cc1[nH]n(-c2ccccc2)c(=O)c1C(=Nc1cccc(N)c1C)c1ccccc1 | 400 µg/mL |  | agar diffusion / agar | 2 mm
Clc1ccccc1NCc1cc2ccccc2nc1Cl | 200 µg/mL | MTCC 281 | agar diffusion | 13.9 mm
C[C@@H]1[C@H](O)[C@@H](C)/C=C/C=C/C=C/C=C/C=C/C=C/C=C/[C@H](O[C@@H]2O[C@H](C)[C@@H](O)[C@H](N)[C@@H]2O)C[C@@H]2O[C@](O)(C[C@@H](O)C[C@@H](O)[C@H](O)CC[C@@H](O)C[C@@H](O)CC(=O)O[C@H]1C)C[C@H](O)[C@H]2C(=O)O | 30 µg/disc |  | agar diffusion / agar | 20 mm
C#CCn1c(C(F)(F)F)nc2cc([N+](=O)[O-])ccc21 | 500 µg/mL | MTCC 1344 |  | 600 mm
CCN(CC)CCSc1nc(Cc2ccc(Cl)cc2)c(C)c(=O)[nH]1 | 200 µg/disc | NRRL 599 | agar diffusion / agar | 13 mm
CCCC(=Nc1ccc(N)cc1)c1c(C)[nH]n(-c2ccccc2)c1=O | 400 µg/mL |  | agar diffusion / agar | 5 mm

Repeating the first 8 entries:

structure	tested at	strain or isolate	method	result
CN1CCN(c2nc(Nc3ccc(C#N)c(C(F)(F)F)c3)nc(Oc3cccc4cccnc34)n2)CC1	100 µg/disc	MTCC 282	agar diffusion / agar	19 mm
COc1ccc(C2OC(c3sc4ccccc4c3Cl)=NN2C(C)=O)cc1	5 µg/disc			9 mm
Cc1cccc(NCc2cc3ccccc3nc2Cl)c1	200 µg/mL	MTCC 281	agar diffusion	9.53 mm
CC[C@H](/C=C/[C@@H](C)[C@H]1CCC2C3CC=C4CC(O)CC[C@]4(C)C3CC[C@@]21C)C(C)C	500 µg/mL	ATCC 16404	agar diffusion	0 mm
CCOC(=O)c1cc2ccccc2[nH]1	5000 µg/mL		agar diffusion	1.3 mm
Clc1ccc(COC(Cn2ccnc2)c2ccc(Cl)cc2Cl)c(Cl)c1	30 µg/mL		agar diffusion	24 mm
Cc1ccc2c(c1)C(C1SCC(=O)N1NC(=O)N1c3ccccc3C=Cc3ccccc31)C(c1ccccc1)=N2	500 µg/mL	MTCC 281	agar diffusion	2 mm
COc1cc2c(cc1-c1cc(-c3ccccc3)nc(N)n1)CCC(C)(C)O2	100 µg/mL		agar diffusion	13 mm